test system: influenza A/WSN/33 (H1N1) virus; assay type: cell-based; settings: CC50 in MDCK / IC50 against A/WSN/33

Substance | SI (Selectivity Index, ratio of CC50 to IC50)
Hexakis 6-Deoxy-6-[4-N-(3β-Hydroxy-lup-20(29)-en-28-oyl)-aminomethyl-1H-1,2,3-triazol-1-yl]-α-CD [Compound 69] | >10.2
Octakis 6-Deoxy-6-[4-N-(3β-Hydroxy-lup-20(29)-en-28-oyl)-aminomethyl-1H-1,2,3-triazol-1-yl]-γ-CD [Compound 71] | >13.2
Heptakis 6-Deoxy-6-[4-N-(3β-Hydroxy-lup-20(29)-en-28-oyl)-aminomethyl-1H-1,2,3-triazol-1-yl]-β-CD [Compound 70] | >13.4

From paper PMC8880671, “Facial Synthesis and Bioevaluation of Well-Defined OEGylated Betulinic Acid-Cyclodextrin Conjugates for Inhibition of Influenza Infection” (Molecules, 2022)
